A mixed list of measured activities; the numbers were collected in NIAID ChemDB.

Shared fields: toxicity to cultured cells; cell line: HFF; read-out: CC50

Conditions beyond the fields shown may differ between rows.

compound | read by | value
Nc1ncnc2c1ccn2[C@@H]1O[C@H](CO)[C@@H](O)[C@@H]1O | - | >100 µM
CCCCCCCCCCCCCCCO[P@]1(=O)OC[C@@H]2COC(=O)C2=C(CCCC)O1 | resazurin | >50 µM
C[C@H]1CCC/C=C/[C@@H]2C[C@H](O)C[C@H]2[C@@H](O)/C=C/C(=O)O1 | XTT | 146 µM
Nc1nc(NC2CC2)c2ncn(C=C3CC3CO)c2n1 | neutral red | 222 µM
C[CH2][Sn]([Cl])([Cl])[CH2]C | - | 11 µg/mL
NC(=O)c1c(Br)n(COCCO)c2ncnc(N)c12 | visual reading | 100 µM
Nc1nc2c(ncn2/C=C2/C[C@H]2CO)c(=O)[nH]1 | neutral red | >429 µM
[Cl][Sn]([c]1ccccc1)([c]1ccccc1)[c]1ccccc1 | - | <1 µg/mL
O=C1C(c2c(O)[nH]c3ccc([N+](=O)[O-])cc23)=Nc2ccccc21 | - | >320 µg/mL
NC(=O)c1c(N)n(COCCO)c2ncnc(N)c12 | visual reading | >100 µM
N#Cc1cn([C@@H]2O[C@H](CO)[C@@H](O)[C@H]2O)c2ncnc(N)c12 | - | 0.03 µM
O=C1c2cc(I)ccc2-n2c1nc1ccccc1c2=O | - | >320 µg/mL
CCCCCC[CH2][Sn]([Cl])([Cl])[CH2]CCCCCC | - | 26 µg/mL
COC(=O)C(C)NP(=O)(OC[C@H]1C/C1=C/n1cnc2c(N)nc(N)nc21)Oc1ccccc1 | neutral red | 57 µM
OCC1OC(n2c(SCc3ccccc3)nc3nc4cc(Cl)c(Cl)cc4nc32)C(O)C1O | visual reading | 20 µM
Cc1nc2n(c(=O)c1CCN1CCC(c3noc4cc(F)ccc34)CC1)CCCC2 | - | 129 µg/mL
O=C1C(c2c(O)[nH]c3ccccc23)=Nc2ccccc21 | - | >320 µg/mL
[Br][Sn]([Br])([c]1ccccc1)[c]1ccccc1 | - | 1.2 µg/mL
Nc1nc2c(ncn2/C=C2/C[C@@H]2CO)c(=O)[nH]1 | neutral red | 257 µM
NC(=O)N1c2ccccc2C=Cc2ccccc21 | - | 100 µg/mL
Nc1nc(N)c2ncn(/C=C3/C[C@@H]3CO)c2n1 | neutral red | 298 µM
OC[C@H]1O[C@@H](n2c(Cl)nc3cc(Cl)ccc32)[C@H](O)[C@@H]1O | visual reading | >100 µM
Nc1nncc2c1c(Br)cn2[C@@H]1O[C@H](CO)[C@@H](O)[C@H]1O | visual reading | 100 µM
Nc1ncnc2c1ccn2[C@@H]1O[C@H](CO)[C@@H](O)[C@H]1O | - | 0.5 µM
Cn1cnc2c(NCc3ccccc3)nc(NCCO)nc21 | visual reading | ≥100 µM
Nc1ncnc2c1ncn2/C=C1/C[C@H]1CO | neutral red | 353 µM
N#Cc1c(N)n([C@@H]2O[C@H](CO)[C@@H](O)[C@H]2O)c2ncnc(N)c12 | visual reading | 0.2 µM
CCCC[CH2][Sn]([Cl])([Cl])[CH2]CCCC | - | <1.4 µg/mL
Cc1[nH]c2ccccc2c(=O)c1-c1ccc(Oc2ccc(OC(F)(F)F)cc2)cc1 | absorbance | 9.349 µM
NC(=O)c1c(Br)n([C@@H]2O[C@H](CO)[C@@H](O)[C@H]2O)c2ncnc(N)c12 | visual reading | 10 µM
[Cl][Sn]([Cl])([c]1ccccc1)[c]1ccccc1 | - | 1.1 µg/mL
NC(=O)c1c(Br)n(COC(CO)CO)c2ncnc(N)c12 | visual reading | 100 µM
Nc1nc(NC2CC2)c2ncn(/C=C3/C[C@@H]3CO)c2n1 | neutral red | 213 µM
CCCC(CCC)C(=O)O | - | 62.4 µg/mL
Nc1ncnc2c1c(Br)cn2COCCO | visual reading | 100 µM
Nc1ncnc2c1ncn2/C=C1/C[C@@H]1CO | neutral red | 68 µM
COCCOCn1cc(C(N)=S)c2c(N)ncnc21 | visual reading | >100 µM
Cc1ccc2[nH]c(O)c(C3=Nc4ccccc4C3=O)c2c1 | - | >320 µg/mL

A second listing of 4 rows from above:

| compound | read by | value |
|---|---|---|
| CCCC[CH2][Sn]([Cl])([Cl])[CH2]CCCC | - | <1.4 µg/mL |
| NC(=O)c1c(Br)n(COCCO)c2ncnc(N)c12 | visual reading | 100 µM |
| Nc1nncc2c1c(Br)cn2[C@@H]1O[C@H](CO)[C@@H](O)[C@H]1O | visual reading | 100 µM |
| CCCCCCCCCCCCCCCO[P@]1(=O)OC[C@@H]2COC(=O)C2=C(CCCC)O1 | resazurin | >50 µM |

Blank or dashed fields: not listed here. CCn is the concentration with n% toxicity to the cells.